Source: patent US20190359693A1, “Binding molecules directed against influenza hemagglutinin and uses thereof” (Janssen / Centocor, published 2019)
Where a chain is given by its changes, count along the chain named.

B1: MD1210 (bispecific antibody)
chain: EVQLVESGGGLVQAGGSLKLSCAASGRTYAMGWFRQAPGKEREFVAHINALGTRTYYSDSVKGRFTISRDNAKNTEYLEMNNLKPEDTAVYYCTAQGQWRAAPVAVAAEYEFWGQGTQVTVSSAAAGGGGSGGGGSGGGGSGGGGSGGGGSGGGGSGGGGSEVQLVESGGGLVQPGGSLRLSCAVSISIFDIYAMDWYRQAPGKQRDLVATSFRDGSTNYADSVKGRFTISRDNAKNTLYLQMNSLKPEDTAVYLCHVSLYRDPLGVAGGMGVYWGKGALVTVSS
B2: SD1084 (VHH)
VHH: EVQLVESGGGLVQPGGSLKLSCAASGFTFSTSWMYWLRQAPGKGLEWVSVINTDGGTYYADSVKDRFTISRDNAKDTLYLQMSSLKSEDTAVYYCAKDWGGPEPTRGQGTQVTVSS
B3: SD1048 (VHH)
VHH: EVQLVESGGGVVQPGGSLRLSCVASGRTSSMYSIGWFRQAPGKEREFVAVIGWYSGRTFYTDSMKGRFTISRDNARNTVYLQMNSLKPEDTAVYYCAAANGPLRLSNQADYWGQGTQVTVSS
B4: SD1036 (VHH)
VHH: EVQLVESGGGLVQAGGSLKLSCAASGRTYAMGWFRQAPGKEREFVAHINALGTRTYYSDSVKGRFTISRDNAKNTEYLEMNNLKPEDTAVYYCTAQGQWRAAPVAVAAEYEFWGQGTQVTVSS
B5: SD3096 (VHH)
VHH: B4 VHH with V5L, A14P, K19R, S58A, A72S, E76V, E79Q, N82S, K84R, Q118L
B6: SD3095 (VHH)
VHH: B4 VHH with V5L, A14P, K19R, S58A, A72S, E76L, E79Q, N82S, K84R, Q118L
B7: SD3028 (VHH)
VHH: B4 VHH with V5L, K19R, G32S, S58A, A72S, E76L, E79Q, N82S, K84R
B8: SD3023 (VHH)
VHH: B4 VHH with V5L, K19R, G32S, A46S, S58A, A72S, E76L, E79Q, N82S, K84R
B9: SD3041 (VHH)
VHH: EVQLVESGGGLVQPGGSLRLSCAASGRTLSIYSMSWFRQAPGKEREFVSAIGWNSGRTYYADSVKGRFTISRDNSKNTLYLQMNSLRAEDTAVYYCAAAKGPLRLSSQADYWGQGTQVTVSS
B10: SD3043 (VHH)
VHH: B9 VHH with S49A, A50T
B11: SD3042 (VHH)
VHH: B9 VHH with A50T
B12: SD3045 (VHH)
VHH: B9 VHH with P14A
B13: SD3046 (VHH)
VHH: B9 VHH with P14A, A50T
B14: SD3024 (VHH)
VHH: EVQLLESGGGLVQPGGSLRLSCAASGRTYAMSWFRQAPGKEREFVSHINALGTRTYYADSVKGRFTISRDNSKNTLYLQMNSLRAEDTAVYYCTAQGQWRAAPVAVAAEYEFWGQGTQVTVSS
B15: SD3097 (VHH)
VHH: B14 VHH with S32G, S46A, H47A, Q118L
B16: SD3098 (VHH)
VHH: B14 VHH with S32G, S46A, H47A, A85P, Q118L
B17: SD3025 (VHH)
VHH: B14 VHH with S46A
B18: SD3026 (VHH)
VHH: B14 VHH with H47A
B19: SD3094 (VHH)
VHH: B14 VHH with S32G, S46A, Q118L
B20: SD3027 (VHH)
VHH: B14 VHH with P14A, H47A, A85P
B21: SD1049 (VHH)
VHH: EVQLVESGGGLVQAGGSLRLSCAASGRTLSLYSVGWFRQAPGKEREFVATIGWNSGRTFYVDSMKGRFTISRDNAKNTVYLQMNDLKVEDTAVYYCAAAKGPLRLSNQADYWGQGTQVTVSS
B22: SD1046 (VHH)
VHH: EVQLVESGGGLVQAGDSLRISCAASGRTLSIYSMGWFRQAPGKEREFVATIGWNSGRTFYPDSLKGRFTISRDNARNTLYLQMNNLRPEDTAVYYCAAAKGPLRLSSQADYWGQGTQVTVSS
B23: SD3068 (VHH)
VHH: B9 VHH with S35G, A50T, Y59F, A61P, V64L, Q117L
B24: SD3047 (VHH)
VHH: B9 VHH with P14A, S49A, A50T
B25: SD3048 (VHH)
VHH: B9 VHH with P14A, A50T, S75A, K76R
B26: SD3044 (VHH)
VHH: B9 VHH with A50T, S75A, K76R
B27: SD3099 (VHH)
VHH: B9 VHH with S35G, S49A, A50T, Y59F, A61P, Q117L
B28: SD3067 (VHH)
VHH: B9 VHH with S35G, S49A, A50T, Y59F, A61P, V64L, Q117L
B29: MD1209 (VHH)
chain: EVQLVESGGGLVQAGGSLKLSCAASGRTYAMGWFRQAPGKEREFVAHINALGTRTYYSDSVKGRFTISRDNAKNTEYLEMNNLKPEDTAVYYCTAQGQWRAAPVAVAAEYEFWGQGTQVTVSSAAAGGGGSGGGGSGGGGSGGGGSGGGGSGGGGSGGGGSEVQLVESGGGLVQAGGSLKLSCAASGRTYAMGWFRQAPGKEREFVAHINALGTRTYYSDSVKGRFTISRDNAKNTEYLEMNNLKPEDTAVYYCTAQGQWRAAPVAVAAEYEFWGQGTQVTVSS
B30: SD1083 (VHH)
VHH: EVQLVESGGGLVQPGGSLRLSCAATGFTLENKAIGWFRQTPGSEREGVLCISKSGSWTYYTDSMRGRFTISRDNAENTVYLQMDSLKPEDTAVYYCATTTAGGGLCWDGTTFSRLASSWGQGTQVTVSS
B31: SD1017 (VHH)
VHH: EVQLVESGGGLVQAGGSLRLSCAASGRTYAMAWFRQAPGKEREFVAHINALGTRAYYSDSVEGRFTISRDNAKNTGYLQMNSLEPEDTAVYVCAAGGQWRAAPVADAAQYDFWGQGTQVTVSS

Tests used:
[1] = target: recombinant HA of H3N2 A/Brisbane/10/2007 (influenza A virus); test: biolayer interferometry (Octet), steady-state fit, geometric mean
[2] = target: recombinant HA of H7N3 A/NIBRG/60 (A/mallard/NL/12/00) (influenza A virus); test: as above
[3] = target: hemagglutinin (HA) of influenza B/Malaysia/2506/04 (Victoria) (influenza B virus); test: cell-based or functional assay
[4] = target: hemagglutinin (HA) of influenza B/Lee/40 (Old) (influenza B virus, UniProt P03460 16-584); test: cell-based or functional assay
[5] = target: hemagglutinin (HA) of influenza B/Florida/04/06 (Yamagata) (influenza B virus); test: cell-based or functional assay
[6] = target: hemagglutinin (HA) of influenza B/Massachusetts/02/12 (Yamagata) (influenza B virus); test: cell-based or functional assay
[7] = target: hemagglutinin (HA) of influenza B/Harbin/7/94 (Yamagata) (influenza B virus); test: cell-based or functional assay
[8] = target: HA of H1N1 A/California/07/2009 (influenza A virus); test: cell-based or functional assay
[9] = target: hemagglutinin (HA) of influenza A/NIBRG/60 (A/mallard/Netherlands/12/00) (H7N3) (influenza A virus …); test: cell-based or functional assay

Binder	VNA IC50 [9]	further results
B1		Kd [1]: 1.7 nM; Kd [2]: 1.2 nM
B2		VNA IC50 [3]: 26 nM; VNA IC50 [4]: > 1000 nM; VNA IC50 [5]: 68 nM; VNA IC50 [6]: 35 nM; VNA IC50 [7]: 322 nM
B3		VNA titer [8]: > 1000 nM
B4	6 nM	
B5	< 4 nM	
B6	< 4 nM	
B7	6 nM	
B8	5 nM	
B9	> 1000 nM	
B10	> 1000 nM	
B11	> 1000 nM	
B12	> 1000 nM	
B13	> 1000 nM	
B14	8 nM	
B15	6 nM	
B16	< 4 nM	

Binder	VNA IC50 [9]	further results
B17	5 nM	
B18	3 nM	
B19	< 4 nM	
B20	5 nM	
B21		VNA titer [8]: > 1000 nM
B22	25 nM	
B23	10 nM	
B24	> 1000 nM	
B25	> 1000 nM	
B26	> 1000 nM	
B27	26 nM	
B28	10 nM	
B29		Kd [1]: 1.8 nM; Kd [2]: 1.4 nM
B30		VNA IC50 [3]: 256 nM; VNA IC50 [4]: 215 nM; VNA IC50 [5]: 290 nM; VNA IC50 [6]: 260 nM; VNA IC50 [7]: 303 nM
B31		VNA titer [8]: > 1000 nM
